Values joined by “and” are separate entries in the source; they are usually repeats but may differ in a detail not shown here. Equal entries are not always repeated. The list shows a part of the results, in another mix than the full data. Results with a measured potency or affinity are listed apart. Active and inactive are the calls of the source.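 Rule for the calls: active = primary inhibition above the hit cutoff, then over 50% inhibition at one or more dose response concentrations (cut at about 23% in these data, passing the limit was not always enough); inconclusive = conflicting primary data, or primary hits not chosen for dose response; inactive = low primary inhibition, or under 50% at every dose.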
The compounds below were run against Aminopeptidase N (Plasmodium falciparum (isolate 3D7)) (UniProt O96935) (assay: P. falciparum M1AAP inhibitors, biochemical, fluorogenic H-Leu-NHMec substrate, 1536-well (AID 1445;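 note: plate controls were DMSO full reaction for no effect and no enzyme background for full effect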)). Settings: recombinant M1AAP, H-Leu-NHMec fluorogenic kinetic assay; at 30 µM; active compounds read high.

The chains behind the UniProt entries cited, without tags or fusion partners. Where a name states a change or a piece, a line headed by the entry shows the natural chain unless it says otherwise.
UniProt O96935: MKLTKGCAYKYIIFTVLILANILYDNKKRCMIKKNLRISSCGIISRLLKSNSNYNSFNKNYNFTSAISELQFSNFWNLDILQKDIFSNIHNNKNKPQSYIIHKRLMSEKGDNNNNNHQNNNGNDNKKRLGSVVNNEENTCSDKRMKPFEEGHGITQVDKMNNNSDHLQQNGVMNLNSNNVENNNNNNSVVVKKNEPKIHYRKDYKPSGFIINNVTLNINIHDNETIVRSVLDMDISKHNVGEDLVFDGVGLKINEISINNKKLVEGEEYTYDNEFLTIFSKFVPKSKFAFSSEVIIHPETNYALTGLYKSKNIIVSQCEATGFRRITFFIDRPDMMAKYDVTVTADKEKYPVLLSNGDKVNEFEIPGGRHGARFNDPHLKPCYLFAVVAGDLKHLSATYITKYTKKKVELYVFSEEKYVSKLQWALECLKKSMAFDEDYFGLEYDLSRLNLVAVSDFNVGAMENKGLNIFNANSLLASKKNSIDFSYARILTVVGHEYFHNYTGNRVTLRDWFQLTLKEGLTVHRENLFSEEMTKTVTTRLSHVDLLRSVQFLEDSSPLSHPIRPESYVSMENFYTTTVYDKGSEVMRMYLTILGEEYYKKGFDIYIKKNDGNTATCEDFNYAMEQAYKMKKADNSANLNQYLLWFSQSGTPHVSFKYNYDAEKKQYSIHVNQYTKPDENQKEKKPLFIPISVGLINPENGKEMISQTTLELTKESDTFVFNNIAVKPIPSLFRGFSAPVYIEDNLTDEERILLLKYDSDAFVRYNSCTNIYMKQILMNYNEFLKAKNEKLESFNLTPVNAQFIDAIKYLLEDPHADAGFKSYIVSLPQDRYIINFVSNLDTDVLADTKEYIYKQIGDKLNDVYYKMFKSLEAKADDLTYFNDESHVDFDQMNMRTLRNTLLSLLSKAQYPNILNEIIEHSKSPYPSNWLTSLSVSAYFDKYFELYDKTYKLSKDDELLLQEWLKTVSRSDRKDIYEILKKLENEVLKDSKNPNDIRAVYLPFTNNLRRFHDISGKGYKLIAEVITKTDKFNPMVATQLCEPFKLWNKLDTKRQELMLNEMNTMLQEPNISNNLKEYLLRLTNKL

| Structure (SMILES) | inhibition |
| --- | --- |
| O=P(Nc1ccccn1)(c1ccc(Br)cc1)c1ccc(Br)cc1 | inactive: 2.17% |
| O=P(Nc1nc2ccccc2s1)(c1ccccc1)c1ccccc1 | inactive: 1.55% |
| C[C@H]1OP(=O)(Oc2ccccc2)[C@H](O)[C@H](O)[C@H]1N=[N+]=[N-] (stereo partly specified) | inactive: 0.85% |
| O=[As](O)(c1ccccc1)c1ccc(O)cc1 | inactive: 12.2% |
| O=[N+]([O-])c1ncn(CCn2cnc([N+](=O)[O-])n2)n1 | inactive: 0.21% |
| CC(=O)NC(SC(=S)N(C)C)C(Cl)(Cl)Cl (stereo unspecified) | inactive: 4.83% |
| O=C(OC1CN2CCC1CC2)c1cccc(Cl)c1 (stereo unspecified) | inactive: -0.6% |
| Nc1ccc([As](=O)(O)c2ccc([N+](=O)[O-])cc2)cc1 | inactive: 0.76% |
| C(Cc1nn[nH]n1)Cc1nn[nH]n1 | inactive: 2.99% |
| O=P(Nc1nccs1)(c1ccccc1)c1ccccc1 | inactive: 7.3% |
| CC(C)C(=O)NC(Sc1ccccc1)C(Cl)(Cl)Cl (stereo unspecified) | inactive: 8.79% |
| c1nnnn1CCn1cnnn1 | inactive: 6.58% |
| O=P1(Nc2nc3ccc(Cl)cc3s2)COc2ccccc2O1 (stereo unspecified) | inactive: -3.71% |
| CCOc1ccc(C2=NCC(CBr)S2)cc1 (stereo unspecified) | inactive: 2.16% |
| CC(C)(C)C(=O)NC(Sc1ccccc1)C(Cl)(Cl)Cl (stereo unspecified) | inactive: 2.07% |
| CCN(CC)CCOC(=O)C(O)(c1ccccc1)c1ccccc1 | inactive: 6.72% |
| C[C@@H]1C=CCP(=O)(Oc2ccccc2)O1 (stereo partly specified) | inactive: -1.91% |
| C[C@H]1OP(=O)(Oc2ccccc2)C[C@@H]2O[C@@H]21 (stereo partly specified) | inactive: -1.49% |
| CC(=O)Nc1ccc([As](=O)(O)O)c(O)c1 | inactive: 3.93% |
| CC(=O)Nc1ccc(Oc2c([N+](=O)[O-])cc([N+](=O)[O-])cc2[N+](=O)[O-])cc1 | inactive: 7.24% |
| c1ccc(-c2nn[nH]n2)c(-c2nn[nH]n2)c1 | inactive: 5.31% |
| CCOC(=O)NC(Sc1ccccc1)C(Cl)(Cl)Cl (stereo unspecified) | inactive: 1.1% |
| Cc1ccc(NP(=O)(Oc2cccc(C)c2)Oc2cccc(C)c2)nc1 | inactive: -3.27% |
| O=C(NC1CCS(=O)(=O)C1)NP(=S)(Oc1ccccc1)Oc1ccccc1 (stereo unspecified) | inactive: -0.9% |
| CCNC(=S)/N=C(\N)N[N+](=O)[O-] | inactive: 0.69% |
| CCC(=O)N1C2C3N(C(=O)CC)C1C1N(C(=O)CC)C(C(N1C(=O)CC)N3C(=O)CC)N2C(=O)CC | inactive: 18.6% |

| Structure (SMILES) | inhibition |
| --- | --- |
| COC(=O)c1cc2c(s1)N=C(c1ccccc1)N(C)P2(=O)N1CCOCC1 (stereo unspecified) | inactive: 12.9% |
| Cc1ccc(OP(=O)(Nc2ccccn2)Oc2ccc(C)cc2)cc1 | inactive: 16.3% |
| CC(=O)NC(SC(=S)N(CC(C)C)CC(C)C)C(Cl)(Cl)Cl (stereo unspecified) | inactive: -0.17% |
| Cc1ccccc1OP(=O)(Nc1ccccn1)Oc1ccccc1C | inactive: 3.37% |
| CN(C)C(=O)Oc1noc2ccccc12 | inactive: 5.23% |
| O=c1c2cc([N+](=O)[O-])ccc2[nH]c2c([N+](=O)[O-])cc([N+](=O)[O-])cc12 | inactive: 1.51% |
| O=P(Nc1nc2ccc(Cl)cc2s1)(c1ccccc1)c1ccccc1 | inactive: -0.67% |
| O=C(O)c1ccccc1[As](=O)(O)O | inactive: -1.33% |
| CC(=O)Nc1ccc([As](=O)(O)O)cc1 | inactive: -0.06% |
| CCOP(=O)(Nc1ccccc1)OCC | inactive: 2.64% and inactive: -3.06% |
| Cc1cc(SC(NC(=O)c2ccc(F)cc2)C(Cl)(Cl)Cl)ncn1 (stereo unspecified) | inactive: 3.6% |
| Cc1ccc(NP(=O)(Oc2ccccc2F)Oc2ccccc2F)nc1 | inactive: -4.38% |
| Nc1cccc2ccc([As](=O)(O)O)cc12 | inactive: 3.08% |
| CCN(N=Nc1nonc1N)c1nonc1N | inactive: 5.71% |
| Cc1ccc(N/C(=N/P(=O)(N2CCOCC2)N2CCOCC2)N2CCOCC2)cc1 | inactive: -1.39% |
| NC(=O)c1cc([N+](=O)[O-])cc([N+](=O)[O-])c1N | inactive: 11.2% |
| Clc1ccc(Cl)c(NC2=NCC(CBr)S2)c1 (stereo unspecified) | inactive: 5.63% |
| CN1CCCC(OC(=O)C(c2ccccc2)c2ccccc2)C1 (stereo unspecified) | inactive: 9.14% |
| Cc1ccc(OP(=O)(Nc2nccs2)Oc2ccc(C)cc2)cc1 | inactive: 3.27% |
| Oc1ccccc1CNc1ccccn1 | inactive: 11.2% |
| Cc1c2non([O-])c-2c(C)[n+](=O)[n+]1[O-] | inactive: 2.17% |
| O=C(NC(Sc1ccncn1)C(Cl)(Cl)Cl)c1ccccc1 (stereo unspecified) | inactive: -0.86% |
| CC(C)CC(=O)NC(Sc1ccc(Cl)cc1)C(Cl)(Cl)Cl (stereo unspecified) | inactive: -2.36% |
| COc1ccc(C2=NCC(CBr)S2)cc1 (stereo unspecified) | inactive: -0.61% |
| Cc1ccc(NP(=O)(Oc2ccccc2)Oc2ccccc2)nc1 | inactive: 0.27% |
| C=C1C/C(=C/C)C(=O)O[C@@H]2CCN3CC=C(COC(=O)[C@]1(C)O)[C@H]23 | inactive: 6.29% |

| Structure (SMILES) | inhibition |
| --- | --- |
| O=[N+]([O-])c1cc([N+](=O)[O-])c(CCNc2ccccc2)c([N+](=O)[O-])c1 | inactive: 10.4% |
| CCc1nc2c(n1)c1c(non1O)c1c2no[n+]1[O-] | inactive: -0.45% |
| CC(=O)N1C2C3N(C(C)=O)C1C1N(C(C)=O)C(C(N1C(C)=O)N3C(C)=O)N2C(C)=O | inactive: -5.56% |
| O=[N+]([O-])c1cccc2n[nH]nc12 | inactive: 11.7% |
| CCN(/C(=N/P(=O)(N1CCOCC1)N1CCOCC1)N1CCOCC1)c1ccc(OC)cc1 | inactive: -0.41% |
| Nc1ccc([As](=O)(O)c2ccc(N)cc2)cc1 | inactive: 8.22% |
| C[N+]1=C2C=CC=CC=C2SC12C([N+](=O)[O-])=CC([N+](=O)[O-])=C[C-]2[N+](=O)[O-] (stereo unspecified) | inactive: 16.2% |
| CC1CCN(C(=O)Oc2c(Cl)cc(Cl)c3cccnc23)CC1 | inactive: 1.89% |
| CC(C)=N/N=C(\N)N[N+](=O)[O-] | inactive: -3.42% |
| CN(C)C(=O)OCCc1n(C)cc[n+]1C | inactive: -0.75% |
| O=C(Nc1cc([As](=O)(O)O)ccc1O)c1ccccc1 | inactive: -1.73% |
| O=[N+]([O-])c1ncn(CCn2ncnc2[N+](=O)[O-])n1 | inactive: 0.76% |
| CC(C)(C)C(=O)NC(Sc1ccncn1)C(Cl)(Cl)Cl (stereo unspecified) | inactive: 6.53% |
| O=C(O)CNc1ccc([As](=O)(O)O)cc1 | inactive: -1.04% |
| O=[N+]([O-])c1cccc(NC2=NCC(CBr)S2)c1 (stereo unspecified) | inactive: -1.78% |
| CCOC(=O)Nc1ccc([As](=O)(O)O)c(O)c1 | inactive: 3.03% |
| Cc1cc(SC(NC(=O)c2ccccc2)C(Cl)(Cl)Cl)nc(C(C)C)n1 (stereo unspecified) | inactive: 2.21% |
| CCOC(=O)Nc1cccc([As](=O)(O)O)c1 | inactive: 1.93% |
| Cc1cc(SC(NC=O)C(Cl)(Cl)Cl)ncn1 (stereo unspecified) | inactive: -4.26% |
| O=P(Nc1ccccn1)(c1cccc2ccccc12)c1cccc2ccccc12 | inactive: 3.93% |
| O=[N+]([O-])c1ccc(Nc2ccc(Oc3ccc([N+](=O)[O-])cc3[N+](=O)[O-])cc2)c([N+](=O)[O-])c1 | inactive: 3.78% |
| COP1(=S)c2c(C)nn(CCC#N)c2N=C(c2ccc(F)cc2)N1C (stereo unspecified) | inactive: -1.62% |
| O=C(COc1ccccc1)OC1CN2CCC1CC2 (stereo unspecified) | inactive: 2.01% |
| CCOC(=O)c1ccc(NC(=O)C(C)(CCl)SC)cc1 (stereo unspecified) | inactive: 1.83% |
| CCC(C)N(CC(C)C)C(=S)SC(NC(C)=O)C(Cl)(Cl)Cl (stereo unspecified) | inactive: 6.12% |
| Cc1c2c(nc3ccccc13)SC(C(Cl)Cl)C2 (stereo unspecified) | inactive: 7.47% |

| Structure (SMILES) | inhibition |
| --- | --- |
| O=C(OC1CN2CCC1CC2)C12CC3CC(CC(C3)C1)C2 (stereo unspecified) | inactive: 3.66% |
| Cc1cc(=O)[nH]c(N[N+](=O)[O-])n1 | inactive: 5.14% |
| COc1ccc2nc(NP(=O)(c3ccccc3)c3ccccc3)sc2c1 | inactive: 2.85% |
| COc1cc(I)ccc1[As](=O)(O)O | inactive: 2.09% |
| COc1ccc(N/C(=N/P(=O)(N2CCOCC2)N2CCOCC2)N2CCOCC2)cc1 | inactive: 6.36% |
| O=[As](O)(c1ccc(O)cc1)c1ccccc1O | inactive: 14.7% |
| C[As](=O)(O)c1cccc(C(=O)O)c1 | inactive: 6.19% |
| Cc1ccc(OP(=O)(Nc2ccc([N+](=O)[O-])cn2)Oc2ccc(C)cc2)cc1 | inactive: 1.72% |
| Cc1ccc2nc3c(c(C)c2c1)CC(C(Cl)Cl)S3 (stereo unspecified) | inactive: 2.2% |
| ClCCSc1nnc(-c2cccnc2)o1 | inactive: 1.22% |
| CC(C)c1ccc(OP(=O)(Nc2ccccn2)Oc2ccccc2F)cc1 (stereo unspecified) | inactive: 2.72% |
| CCN(CC)C(=S)SC(NC=O)C(Cl)(Cl)Cl (stereo unspecified) | inactive: 5.9% |
| CC(C)NC(=O)NP(=O)(Oc1ccccc1)Oc1ccccc1 | inactive: 2.81% |
| O=[N+]([O-])c1cc([N+](=O)[O-])c(-c2ccn[nH]2)s1 | inactive: 8.61% |
| CCOP1(=S)c2c(C)nn(CCC#N)c2N=C(c2ccccc2F)N1C (stereo unspecified) | inactive: 6.47% |
| O=P(Nc1nccs1)(c1ccccc1)c1nc2ccccc2s1 (stereo unspecified) | inactive: 0.07% |
| O=P(Nc1nccs1)(Oc1ccccc1)Oc1ccccc1 | inactive: 6.54% |
| CS(=O)(=O)c1cc([N+](=O)[O-])c2no[n+]([O-])c2c1 | inactive: 19.1% |
| O=C(O)COc1ccc([As](=O)(O)O)cc1[N+](=O)[O-] | inactive: 0.26% |
| Nc1ccccc1[As](=O)(O)c1ccccc1 | inactive: 1.5% |
| CCOP1(=S)c2c(C)nn(CCC#N)c2N=C(c2ccc(F)cc2)N1C (stereo unspecified) | inactive: -8.14% |
| CN(C(=O)Cc1ccccc1)[C@@H]1CC[C@]2(CCCO2)C[C@H]1N1CCCC1 | inactive: 0.98% |
| O=[N+]([O-])c1ccc2c(c1)nnn2O | inactive: 3.45% |

Source: PubChem BioAssay AID1445 (SRMLSC, 2008)
